Key:
[1] = test system: replicon containing GT3a NS3 protease; test: Resistant colony selection study, GT3a; conditions: concentrations ≥ 100-fold over its EC50 value
[2] = test system: resistance-associated variants in GT 1a (H77); test: Activity against resistance-associated variants, GT 1a
[3] = test system: resistance-associated variants in GT 1b (Con-1); test: Activity against resistance-associated variants, GT 1b

In the case of `CC(C)(C)[C@@H]1NC(=O)O[C@@H]2CCC[C@H]2OC/C=C/C(F)(F)c2nc3ccccc3nc2O[C@@H]2C[C@@H](C(=O)N[C@]3(C(=O)NS(=O)(=O)C4(C)CC4)C[C@H]3C(F)F)N(C2)C1=O`, the colonies selected [1] is reported as “very few colonies”, the “activity against common variants at NS3 amino acid positions 155 and 168” value ([2]; GT1a variants that conferred resistance to other HCV protease inhibitors) is reported as “retained its activity” and the “activity against NS5A inhibitor and NS5B inhibitor resistance-associated variants” value ([2]; e.g. M28T, M28V, Q30D, Q30R, Y93C, Y93H, Y93N, L31V+Y93H, C316Y, M414T, Y448C, Y448H, S556G and S559G in GT 1a) is reported as “potent activity”. For the same molecule, the “activity against common variants at NS3 amino acid positions 155 and 168” value ([3]; GT1b variants that conferred resistance to other HCV protease inhibitors) was “retained its activity” and the “activity against NS5A inhibitor and NS5B inhibitor resistance-associated variants” value ([3]; e.g. L28T, Y93H, S282T, C316Y, Y448H and S556G in GT 1b) was “potent activity”.

From patent EP4843576A2, “METHODS FOR TREATING HCV” (dated 2026)
